Zika virus NS2B-NS3: effect of single substitutions on growth in cell culture

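Mutant virus pools were grown in human Huh-7.5 cells. Deep sequencing gave the change in frequency of each mutant relative to wild type, averaged over three replicate libraries (two for positions 207-308).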

Chain scanned (Zika virus MR766; NS2B from position 2 to 131, then the start of NS3):
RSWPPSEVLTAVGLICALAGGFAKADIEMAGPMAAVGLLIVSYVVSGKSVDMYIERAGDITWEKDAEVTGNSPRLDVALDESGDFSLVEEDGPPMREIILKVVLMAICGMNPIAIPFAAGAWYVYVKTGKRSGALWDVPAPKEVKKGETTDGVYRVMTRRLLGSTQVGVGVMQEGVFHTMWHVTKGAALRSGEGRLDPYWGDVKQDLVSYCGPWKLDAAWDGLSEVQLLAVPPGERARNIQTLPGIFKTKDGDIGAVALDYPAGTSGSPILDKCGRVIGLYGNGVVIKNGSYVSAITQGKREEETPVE

Values are log2 effects on growth: 0 is wild type, lower means poorer growth. Each entry names the wild-type residue, its position and the residue put in its place. This list holds changes to proline only.

With R1P the assay gave -9.11.
With S2P the assay gave -7.37.
With W3P the assay gave -6.99.
With S6P the assay gave -1.92.
With E7P the assay gave -6.52.
With V8P the assay gave -0.06.
With L9P the assay gave -1.56.
With T10P the assay gave -6.39.
With A11P the assay gave -5.92.
With V12P the assay gave -6.72.
With G13P the assay gave -7.03.
With L14P the assay gave -5.50.
With I15P the assay gave -7.57.
With C16P the assay gave -7.64.
With A17P the assay gave -8.18.
With L18P the assay gave -6.93.
With A19P the assay gave -8.35.
With G20P the assay gave -7.12.
With G21P the assay gave -6.96.
With F22P the assay gave -5.80.
With A23P the assay gave -2.95.
With K24P the assay gave -6.47.
With A25P the assay gave -4.90.
With D26P the assay gave -2.39.
With I27P the assay gave -5.86.
With E28P the assay gave -3.18.
With M29P the assay gave -6.87.
With A30P the assay gave -2.34.
With G31P the assay gave -4.83.
With M33P the assay gave -6.43.
With A34P the assay gave -7.22.
With A35P the assay gave -6.24.
With V36P the assay gave -5.08.
With G37P the assay gave -5.28.
With L38P the assay gave -6.63.
With L39P the assay gave -3.43.
With I40P the assay gave -6.00.
With V41P the assay gave -6.43.
With S42P the assay gave -6.78.
With Y43P the assay gave -6.27.
With V44P the assay gave -6.55.
With V45P the assay gave -6.73.
With S46P the assay gave -7.09.
With G47P the assay gave -7.28.
With K48P the assay gave -5.85.
With S49P the assay gave -5.26.
With V50P the assay gave -6.60.
With D51P the assay gave -7.32.
With M52P the assay gave -7.52.
With Y53P the assay gave -7.55.
With I54P the assay gave -7.56.
With E55P the assay gave -7.67.
With R56P the assay gave -1.40.
With A57P the assay gave -6.80.
With G58P the assay gave -7.21.
With D59P the assay gave -2.95.
With I60P the assay gave -6.00.
With T61P the assay gave -7.64.
With W62P the assay gave -7.53.
With E63P the assay gave -7.46.
With K64P the assay gave 0.72.
With D65P the assay gave -7.39.
With A66P the assay gave -7.25.

The last 4 entries again:

substitution,log2 effect
E63P,-7.46
K64P,0.72
D65P,-7.39
A66P,-7.25

Values above 0 are not proof of better growth: six high scorers were tested one by one, five grew less well than wild type and one about as well. The region was split into three libraries (1-103, 104-206, 207-308). Position 1 still belongs to NS2A. In the paper, -1 or higher counts as tolerated.

The measurements come from Ni et al. 2025 (doi:10.1038/s41467-025-63602-z).